# In paper PMC8459920:
# By UniProt entry, the sequences of proteins in these tests, tags left out.
# UniProt Q93034, whole entry: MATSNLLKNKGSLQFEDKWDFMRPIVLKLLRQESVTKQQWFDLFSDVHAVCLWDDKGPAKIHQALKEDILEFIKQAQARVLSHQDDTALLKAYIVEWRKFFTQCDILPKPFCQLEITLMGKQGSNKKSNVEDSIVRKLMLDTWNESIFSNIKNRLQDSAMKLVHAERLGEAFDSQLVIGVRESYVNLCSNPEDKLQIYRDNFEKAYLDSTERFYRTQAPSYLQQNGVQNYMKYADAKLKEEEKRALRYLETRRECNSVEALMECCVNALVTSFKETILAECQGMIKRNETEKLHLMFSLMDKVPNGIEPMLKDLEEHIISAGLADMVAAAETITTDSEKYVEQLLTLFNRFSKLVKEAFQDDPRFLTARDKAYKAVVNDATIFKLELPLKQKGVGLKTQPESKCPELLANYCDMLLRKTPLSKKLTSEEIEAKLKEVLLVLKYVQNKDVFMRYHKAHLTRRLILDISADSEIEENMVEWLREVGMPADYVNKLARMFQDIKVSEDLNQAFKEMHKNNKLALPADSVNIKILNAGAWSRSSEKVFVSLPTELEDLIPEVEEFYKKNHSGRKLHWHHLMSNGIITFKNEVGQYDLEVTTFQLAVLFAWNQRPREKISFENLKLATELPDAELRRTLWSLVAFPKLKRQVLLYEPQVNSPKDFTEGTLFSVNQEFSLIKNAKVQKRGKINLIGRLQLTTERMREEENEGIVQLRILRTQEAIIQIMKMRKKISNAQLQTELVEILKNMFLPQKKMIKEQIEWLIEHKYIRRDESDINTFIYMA
# This is one part of the list.
# Biological target: Cullin-5 (UniProt Q93034)
# Test: cross-link between two proteins; cross-linking mass spectrometry
substance,measurement,value
"Virion infectivity factor, P69723",listed as a hit,yes
